Experimental data: patent US20200262877A1, “ION CHANNEL-BINDING PEPTIDES AND METHODS OF USE THEREOF” (priority 2017, published 2020)

Key:
Assay in all cases: cell-based or functional assay
5HT3a = molecular target: 5HT3a
Cav2.1 = molecular target: Cav2.1
Cav2.2 = molecular target: Cav2.2
Kv1.1 = molecular target: Kv1.1
Kv1.2 = molecular target: Kv1.2
Kv1.3 = molecular target: Kv1.3
[1] = molecular target: Kv1.3 potassium channel (human KCNA3 gene) (human), P22001
[2] = molecular target: Kv1.5 potassium channel (human KCNA5 gene) (human), P22460
Kv2.1 = molecular target: Kv2.1
NR2B = molecular target: NR2B
[3] = molecular target: Nav1.3 sodium channel (human SCN3A gene) (human), Q9NY46
[4] = molecular target: Nav1.4 sodium channel (human SCN4A gene) (human), P35499
Nav1.5 = molecular target: Nav1.5
[5] = molecular target: Nav1.5 cardiac sodium channel (human SCN5A gene) (human), Q14524
[6] = molecular target: Nav1.7 sodium channel (human SCN9A gene) (human), Q15858
TRPA1 = molecular target: TRPA1
hERG, Q12809 = molecular target: T1, hERG, Q12809
T1 chain: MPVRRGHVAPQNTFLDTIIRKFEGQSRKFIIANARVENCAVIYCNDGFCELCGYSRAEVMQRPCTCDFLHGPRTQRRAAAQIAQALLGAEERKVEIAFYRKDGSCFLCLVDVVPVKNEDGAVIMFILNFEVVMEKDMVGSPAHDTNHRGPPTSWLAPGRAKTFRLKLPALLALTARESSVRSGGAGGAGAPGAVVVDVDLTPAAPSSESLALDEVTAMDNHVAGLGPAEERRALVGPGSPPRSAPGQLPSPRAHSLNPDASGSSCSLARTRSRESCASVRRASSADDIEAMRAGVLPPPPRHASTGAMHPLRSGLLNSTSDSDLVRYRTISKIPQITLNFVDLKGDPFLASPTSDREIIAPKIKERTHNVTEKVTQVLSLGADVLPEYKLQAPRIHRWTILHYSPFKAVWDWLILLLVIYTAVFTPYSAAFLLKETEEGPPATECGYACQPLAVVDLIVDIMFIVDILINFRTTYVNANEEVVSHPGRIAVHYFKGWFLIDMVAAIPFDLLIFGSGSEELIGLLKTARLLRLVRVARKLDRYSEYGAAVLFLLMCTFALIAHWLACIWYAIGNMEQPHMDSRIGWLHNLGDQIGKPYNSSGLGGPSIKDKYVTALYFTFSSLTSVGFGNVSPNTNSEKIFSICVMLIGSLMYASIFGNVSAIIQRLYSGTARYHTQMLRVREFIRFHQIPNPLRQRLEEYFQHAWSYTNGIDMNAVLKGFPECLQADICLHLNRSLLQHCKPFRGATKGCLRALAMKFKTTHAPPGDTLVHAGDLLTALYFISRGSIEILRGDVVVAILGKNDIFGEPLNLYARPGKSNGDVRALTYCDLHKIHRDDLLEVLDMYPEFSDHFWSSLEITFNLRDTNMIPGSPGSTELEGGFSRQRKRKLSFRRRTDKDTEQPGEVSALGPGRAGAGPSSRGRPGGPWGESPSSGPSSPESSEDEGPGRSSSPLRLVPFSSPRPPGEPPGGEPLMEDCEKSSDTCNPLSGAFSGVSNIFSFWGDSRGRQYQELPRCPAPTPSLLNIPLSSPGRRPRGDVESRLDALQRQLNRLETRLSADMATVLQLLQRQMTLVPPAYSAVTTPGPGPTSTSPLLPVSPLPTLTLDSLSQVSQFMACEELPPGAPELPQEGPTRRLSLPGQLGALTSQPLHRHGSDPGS

α3β4 nicotinic receptor = molecular target: α3β4 nicotinic receptor
α4β2 nicotinic receptor = molecular target: α4β2 nicotinic receptor
GABA = molecular target: GABA
Kir2.1 = molecular target: Kir2.1
NR2A = molecular target: NR2A
Nav1.7 = molecular target: Nav1.7
TRPV1 = molecular target: TRPV1

GSVRIPVSCKHSGQCLKPCKDAGMRFGKCMNGKCDCTPK (modifications not checked) [SEQ ID NO: 6] gave a % activity at 0.2 µM (5HT3a) of 85%, a % activity at 20 µM (5HT3a) of 84% and a % activity at 20 µM (Cav2.1) of 111%. It also gave a % activity at 20 µM (Cav2.2) of 107%, a % activity at 20 µM (Kv1.1) of 30% and a % activity at 0.2 µM (Kv1.2) of 81%. For the same binder, the % activity at 20 µM (Kv1.2) was 85%, the % activity at 0.2 µM (Kv1.3) was 25% and the % activity at 20 µM (Kv1.3) was 0%. It also gave an IC50 of current inhibition, TP1 [1] of 895 nM, an IC50 of current inhibition, TP6 [1] of 894 nM and an IC50 of current inhibition, TP1 [2] greater than 1000 nM. The IC50 of current inhibition, TP6 [2] was greater than 1000 nM, the % activity at 20 µM (Kv2.1) was 124% and the % activity at 20 µM (NR2B) was 75%. The IC50 of current inhibition, TP1 [3] was greater than 1000 nM, the IC50 of current inhibition, TP2 [3] was greater than 1000 nM and the IC50 of current inhibition, TP1 [4] was greater than 1000 nM. It also gave an IC50 of current inhibition, TP2 [4] greater than 1000 nM, a % activity at 20 µM (TP1) (Nav1.5) of 116% and a % activity at 20 µM (TP2) (Nav1.5) of 120%. The IC50 of current inhibition, TP1 [5] was greater than 1000 nM, the IC50 of current inhibition, TP2 [5] was greater than 1000 nM and the IC50 of current inhibition, TP1 [6] was greater than 1000 nM. For the same binder, the IC50 of current inhibition, TP2 [6] was greater than 1000 nM, the % activity at 0.2 µM (TRPA1) was 126% and the % activity at 0.2 µM (hERG, Q12809) was 107%. It also gave a % activity at 20 µM (hERG, Q12809) of 71%, a % activity at 0.2 µM (α3β4 nicotinic receptor) of 100% and a % activity at 0.2 µM (α4β2 nicotinic receptor) of 71%.

Work on GSGVPINVKCRGSRDCLDPCKKAGMRFGKCINSKCHCTP (modifications not checked) [SEQ ID NO: 5] yielded a % activity at 20 µM (5HT3a) of 80%, a % activity at 0.2 µM (Cav2.1) of 100% and a % activity at 20 µM (Cav2.1) of 121%. For the same binder, the % activity at 20 µM (Cav2.2) was 117%, the % activity at 0.2 µM (GABA) was 109% and the % activity at 20 µM (GABA) was 114%. For the same binder, the % activity at 0.2 µM (Kir2.1) was 103%, the % activity at 20 µM (Kv1.1) was 55% and the % activity at 0.2 µM (Kv1.2) was 89%. The % activity at 20 µM (Kv1.2) was 73%, the % activity at 0.2 µM (Kv1.3) was 98% and the % activity at 20 µM (Kv1.3) was 28%. It also gave an IC50 of current inhibition, TP1 [1] greater than 1000 nM, an IC50 of current inhibition, TP6 [1] greater than 1000 nM and an IC50 of current inhibition, TP1 [2] greater than 1000 nM. For the same binder, the IC50 of current inhibition, TP6 [2] was greater than 1000 nM, the % activity at 0.2 µM (Kv2.1) was 110% and the % activity at 20 µM (Kv2.1) was 109%. The % activity at 0.2 µM (NR2A) was 109%, the % activity at 0.2 µM (NR2B) was 112% and the % activity at 20 µM (NR2B) was 95%. It also gave an IC50 of current inhibition, TP1 [3] greater than 1000 nM, an IC50 of current inhibition, TP2 [3] greater than 1000 nM and an IC50 of current inhibition, TP1 [4] greater than 1000 nM. The IC50 of current inhibition, TP2 [4] was greater than 1000 nM, the % activity at 0.2 µM (TP1) (Nav1.5) was 107% and the % activity at 0.2 µM (TP2) (Nav1.5) was 107%. It also gave a % activity at 20 µM (TP1) (Nav1.5) of 103%, a % activity at 20 µM (TP2) (Nav1.5) of 105% and an IC50 of current inhibition, TP1 [5] greater than 1000 nM. The IC50 of current inhibition, TP2 [5] was greater than 1000 nM, the % activity at 0.2 µM (TP1) (Nav1.7) was 98% and the % activity at 0.2 µM (TP2) (Nav1.7) was 109%. It also gave a % activity at 20 µM (TP1) (Nav1.7) of 79%, a % activity at 20 µM (TP2) (Nav1.7) of 66% and an IC50 of current inhibition, TP1 [6] greater than 1000 nM. The IC50 of current inhibition, TP2 [6] was greater than 1000 nM, the % activity at 0.2 µM (TRPA1) was 119% and the % activity at 20 µM (TRPA1) was 75%. It also gave a % activity at 0.2 µM (TRPV1) of 101%, a % activity at 20 µM (TRPV1) of 101% and a % activity at 0.2 µM (hERG, Q12809) of 106%. It also gave a % activity at 20 µM (hERG, Q12809) of 67%, a % activity at 0.2 µM (α3β4 nicotinic receptor) of 104% and a % activity at 20 µM (α3β4 nicotinic receptor) of 90%. It also gave a % activity at 0.2 µM (α4β2 nicotinic receptor) of 83% and a % activity at 20 µM (α4β2 nicotinic receptor) of 93%.
